Test results reported in PubChem BioAssay AID504720 (Sanford-Burnham Center for Chemical Genomics, 2011).
This is a selection; strong and weak results do not stand in their true shares. The source made the active and inactive calls. Rule as the data show it: active = activation above about 50%; inactive = the rest.

Protein sequences, listed by entry. Tags and fused reporters are not part of them. Lines headed by an entry give the natural chain unless they say otherwise; changes in a name come on top.
UniProt P0AE70: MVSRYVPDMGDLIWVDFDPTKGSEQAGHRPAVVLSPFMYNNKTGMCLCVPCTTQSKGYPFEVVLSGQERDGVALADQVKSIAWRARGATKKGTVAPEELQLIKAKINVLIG

Target: Endoribonuclease toxin MazF (Escherichia coli (strain K12)) (UniProt P0AE70)
Experiment: activators of E. coli MazEF toxin-antitoxin RNase, primary screen, biochemical, fluorescence, uHTS (AID 504720)
Conditions: FAM/BHQ RNA-DNA oligo cleavage fluorescence, 5 h, at 20 µM, stronger effect = higher value

SMILES | activation
Cc1ccc(C(=O)OC2CN3CCC2CC3)cc1 (centres undefined) | inactive: -2.29%
Cc1nn(-c2ccccc2)c2c1P(=O)(N1CCOCC1)N(C)C(c1ccccc1)=N2 (centres undefined) | inactive: 7.35%
CN(C)C1(CNC(=O)c2ccc(S(C)(=O)=O)cc2)CCCCC1 | inactive: 1.29%
CCCC1OP(=O)(Nc2ccccc2)OCC1CC (centres undefined) | inactive: 3.79%
O=C(/C=C/c1ccccc1)OC1CN2CCC1CC2 (centres undefined) | inactive: -2.38%
NC(=O)Nc1ccc([As](=O)(O)O)cc1 | inactive: 0.934%
CN(C(=O)Cc1ccccc1)[C@@H]1CC[C@]2(CCCO2)C[C@H]1N1CCCC1 | inactive: 5.02%
CCOP1(=S)c2c(C)nn(CCC#N)c2N=C(c2ccc(F)cc2)N1C (centres undefined) | inactive: 2.33%
N#CCCN(C(=O)COC(=O)C(O)(c1ccccc1)c1ccccc1)c1ccc(F)cc1 | inactive: 1.6%
CN(C(=O)Cc1ccc(Cl)c(Cl)c1)[C@H]1CC[C@@]2(CCCO2)C[C@@H]1N1CCCC1 | inactive: 7.01%
CN(C)C(=O)c1cc([N+](=O)[O-])cc2c1-c1c(cc([N+](=O)[O-])cc1[N+](=O)[O-])C2=O | inactive: 3.95%
O=[N+]([O-])c1ccc2c(c1)nnn2O | inactive: -4.98%
O=P(Nc1nccs1)(c1ccccc1)c1nc2ccccc2s1 (centres undefined) | inactive: -5.75%
O=P(Nc1nccs1)(Oc1ccccc1)Oc1ccccc1 | inactive: 3.85%
CCOP1(=S)c2c(C)nn(CCC#N)c2N=C(c2ccccc2F)N1C (centres undefined) | inactive: 1.62%
CS(=O)(=O)c1cc([N+](=O)[O-])c2no[n+]([O-])c2c1 | inactive: 21.7%
Nc1ccccc1[As](=O)(O)c1ccccc1 | inactive: 6.67%
O=C(O)COc1ccc([As](=O)(O)O)cc1[N+](=O)[O-] | inactive: 5.51%
Nc1cccc2c([As](=O)(O)O)cccc12 | inactive: -959%
Cc1ccc(NCCc2c([N+](=O)[O-])cc([N+](=O)[O-])cc2[N+](=O)[O-])cc1 | inactive: -0.2%
CCCOP(=S)(Nc1nc(N)cc(=O)[nH]1)OCCC | inactive: 9.26%
CCOP(=O)(Nc1cccc2ccccc12)OCC | inactive: 5.65%
COc1cc(C2NCCC3(OCCO3)C2(C)C)cc(OC)c1OC (centres undefined) | inactive: -3.57%

SMILES | activation
O=C(OC1CN2CCC1CC2)c1ccc(Cl)cc1 (centres undefined) | inactive: 1.38%
CS(=O)(=O)c1ccc(Cl)c(NC(=O)COC(=O)C(O)(c2ccccc2)c2ccccc2)c1 | inactive: 1.23%
COc1cc(C(=O)NCC2(N3CCOCC3)CCCCC2)cc(Cl)c1OC(C)C | inactive: -4.65%
O=[As](O)(O)c1cccnc1 | inactive: -2.27%
O=[As](O)(c1cccc(O)c1)c1cccc(O)c1 | inactive: -1.78%
Cc1cccc(OCC(=O)OC2CN3CCC2CC3)c1 (centres undefined) | inactive: 0.084%
O=[N+]([O-])c1cc(Oc2ccc([N+](=O)[O-])cc2C(F)(F)F)cc([N+](=O)[O-])c1 | inactive: 7.22%
COc1ccc(N/C(=N/P(=O)(N2CCOCC2)N2CCOCC2)N2CCOCC2)cc1 | inactive: -0.304%
Cc1c2c(nc3ccccc13)SC(C(Cl)Cl)C2 (centres undefined) | inactive: 7.2%
Cc1cc(=O)[nH]c(N[N+](=O)[O-])n1 | inactive: 7.32%
O=C(OC1CN2CCC1CC2)C12CC3CC(CC(C3)C1)C2 (centres undefined) | inactive: -10.8%
O=P1(N(CCCl)CCCl)OCCCN1CCCl (centres undefined) | inactive: -6.84%
O=P1(N(CCCl)CCCl)Nc2ccccc2N1 | inactive: -3.27%
COc1cc(I)ccc1[As](=O)(O)O | inactive: -2.32%
COc1ccc2nc(NP(=O)(c3ccccc3)c3ccccc3)sc2c1 | inactive: 1.66%
ClCCSc1nnc(-c2cccnc2)o1 | inactive: 0.852%
CC(C)c1ccc(OP(=O)(Nc2ccccn2)Oc2ccccc2F)cc1 (centres undefined) | inactive: 9.54%
COC(=O)C1(C)COP(=O)(N2CCCCCC2)OC1 (centres undefined) | inactive: 2.61%
O=[N+]([O-])c1cc([N+](=O)[O-])c(-c2ccn[nH]2)s1 | inactive: 1.15%
O=C(OC1CN2CCC1CC2)c1cccc2[nH]cnc12 (centres undefined) | inactive: 7.51%
CCN(CC)C(=S)SC(NC=O)C(Cl)(Cl)Cl (centres undefined) | inactive: -4.03%
CC(C)NC(=O)NP(=O)(Oc1ccccc1)Oc1ccccc1 | inactive: 11%
COc1cc(C(=O)NCC2(N3CCOCC3)CCCCC2)ccc1OCC(C)C | inactive: 15.5%

SMILES | activation
O=[N+]([O-])c1ccc(-c2cc([N+](=O)[O-])c(O)c([N+](=O)[O-])c2)cc1 | inactive: -13.4%
C[As](=O)(O)c1cccc(C(=O)O)c1 | inactive: 5.55%
O=[As](O)(c1ccc(O)cc1)c1ccccc1O | inactive: 5.56%
Cc1ccc(OP(=O)(Nc2ccc([N+](=O)[O-])cn2)Oc2ccc(C)cc2)cc1 | inactive: 4.56%
Cc1ccc2nc3c(c(C)c2c1)CC(C(Cl)Cl)S3 (centres undefined) | inactive: -5.61%
CCOC(=O)Nc1cccc([As](=O)(O)O)c1 | inactive: 6.74%
O=P(Nc1ccccn1)(c1cccc2ccccc12)c1cccc2ccccc12 | inactive: 16.9%
Cc1cc(SC(NC=O)C(Cl)(Cl)Cl)ncn1 (centres undefined) | inactive: -3.21%
O=[N+]([O-])c1ccc(Nc2ccc(Oc3ccc([N+](=O)[O-])cc3[N+](=O)[O-])cc2)c([N+](=O)[O-])c1 | inactive: 1.43%
CCOC(=O)Nc1ccc([As](=O)(O)O)c(O)c1 | inactive: 5.25%
O=C(O)C(O)c1ccc(N(CCCl)CCCl)cc1 (centres undefined) | inactive: -3.39%
CC1CCNP(=O)(N(CCCl)CCCl)O1 (centres undefined) | inactive: 4.66%
COP(=O)(OC)N1CC1c1ccccc1 (centres undefined) | inactive: 9.38%
Cc1cc(SC(NC(=O)c2ccccc2)C(Cl)(Cl)Cl)nc(C(C)C)n1 (centres undefined) | inactive: 2.78%
CCCCOc1ccc(C(=O)NCC2(N3CCCCC3)CCCCC2)cc1OC | inactive: 2.6%
CSc1ccc(Nc2c([N+](=O)[O-])cc([N+](=O)[O-])cc2[N+](=O)[O-])cc1 | inactive: 11.9%
O=C(OC1CN2CCC1CC2)c1cccc([N+](=O)[O-])c1 (centres undefined) | inactive: 7.45%
CCOC(=O)c1ccc(NC(=O)C(C)(CCl)SC)cc1 (centres undefined) | inactive: 6.74%
CCC(C)N(CC(C)C)C(=S)SC(NC(C)=O)C(Cl)(Cl)Cl (centres undefined) | inactive: 3.33%
COP1(=S)c2c(C)nn(CCC#N)c2N=C(c2ccc(F)cc2)N1C (centres undefined) | inactive: 3.35%
O=C(O)C(=O)c1ccc(N(CCCl)CCCl)cc1 | inactive: -4.79%
O=C(Nc1ccncc1[N+](=O)[O-])c1ccc([N+](=O)[O-])cc1[N+](=O)[O-] | inactive: 3.98%
O=C(COc1ccccc1)OC1CN2CCC1CC2 (centres undefined) | inactive: 3.82%
